Measured values from several laboratories, pooled; numbers as filed in NIAID ChemDB.

Shared fields: tests in culture

Blank or dashed fields: not listed here.

structure,strain,dose,method,read-out,agent,setting,result
COc1ccc(-c2c(-c3ccc(OCc4ccccc4)cc3O)n[nH]c2C(F)(F)F)cc1OC,-,-,visual reading,MIC,Mycobacterium marinum,-,>50 µg/mL
COc1ccc(NC(=O)NNC(=O)c2ccncc2)cc1,My 6509/96,-,broth dilution,MIC100,Mycobacterium kansasii,21 d,>125 µM
CCc1nc2cc(F)ccn2c1C(=O)NCc1ccc(N2CCN(c3ccc(OCC(F)(F)F)nc3)[C@@H](C)C2)c(F)c1.Cl,-,0.011 µM,fluorescence,inhibition,Mycobacterium avium,-,85%
CCCCCCCCCCCC(CCCCCCCCCCC)OC(=O)NC(CCC(=O)O)(CCC(=O)O)CCC(=O)O,ATCC 927,-,-,MIC,Mycobacterium marinum,-,216 µg/mL
COc1ccn2nc(C)c(C(=O)NCc3ccc(N4CCC(c5ccc(OC(F)(F)F)cc5)CC4)c(Cl)c3)c2c1.Cl,-,0.018 µM,fluorescence,inhibition,Mycobacterium avium,-,85%
CCCCCCCC(CCCCCCC)NC(=O)NC(CCC(=O)O)(CCC(=O)O)CCC(=O)O,EO-P-1,-,-,MIC,Mycobacterium chelonae,-,36 µg/mL
CCc1nc2cc(F)ccn2c1C(=O)NCc1ccc(N2CCN(c3ccc(OC4CC4)cc3)[C@@H](C)C2)c(F)c1.Cl,-,0.0093 µM,fluorescence,inhibition,Mycobacterium avium,-,85%
COc1ccc(C(=O)OCCNC(=O)c2c(Cl)nc3ccccn23)cc1,-,-,fluorescence,MIC50,Mycobacterium ulcerans,-,>10 µg/mL
CO[C@@]1(NC(=O)Cn2cnnn2)C(=O)N2C(C(=O)O)=C(CSc3nnc(C)s3)CSC21,1030-8,-,-,MIC,Mycobacterium fortuitum,-,100 µg/mL
CCc1nc2ccc(Cl)cn2c1C(=O)NCc1ccc(N2CC=C(c3ccc(OC(F)(F)F)cc3)CC2)c(F)c1.Cl,-,0.011 µM,fluorescence,inhibition,Mycobacterium avium,-,85%
Oc1ccc(-c2n[nH]c(C(F)(F)F)c2-c2ccc(Br)cc2)c(O)c1,-,-,visual reading,MIC,Mycobacterium marinum,-,>50 µg/mL
Cc1ccc2nc(C)c(C(=O)NCc3ccc(Oc4cccc(C(F)(F)F)c4)cc3)n2c1,-,0.13 µM,fluorescence,inhibition,Mycobacterium avium,-,85%
C=C(C)COc1ccc(-c2n[nH]c(C(F)(F)F)c2-c2ccc(OC)cc2)c(O)c1,-,-,visual reading,MIC,Mycobacterium marinum,-,>50 µg/mL
CCCCCCCCCCCCCCCCCCCCCCCC(=O)NC(CCC(=O)O)(CCC(=O)O)CCC(=O)O,EO-P-1,-,-,MIC,Mycobacterium chelonae,-,54 µg/mL
Cc1ccc(NC(=O)NNC(=O)c2ccncc2)cc1,My 6509/96,-,broth dilution,MIC100,Mycobacterium kansasii,14 d,62.5 µM
CO[C@H]1/C=C/O[C@@]2(C)Oc3c(C)c(O)c4c(O)c(c5c(c4c3C2=O)NC2(CCN(CC(C)C)CC2)N=5)=NC(=O)/C(C)=C\C=C\[C@H](C)[C@H](O)[C@@H](C)[C@@H](O)[C@@H](C)[C@H](OC(C)=O)[C@@H]1C,119,-,-,MIC,Mycobacterium avium intracellulare,-,0.5 µg/mL
CO[C@@]1(NC(=O)CSCC#N)C(=O)N2C(C(=O)O)=C(CSc3nnnn3C)CS[C@@H]21,1261,-,-,MIC,Mycobacterium fortuitum,-,6.25 µg/mL
NCC[C@H](O)C(=O)N[C@@H]1C[C@H](N)[C@@H](O[C@H]2O[C@H](CN)[C@@H](O)[C@H](O)[C@H]2O)[C@H](O)[C@H]1O[C@H]1O[C@H](CO)[C@@H](O)[C@H](N)[C@H]1O,ATCC 927,-,-,MIC,Mycobacterium marinum,-,0.4 µg/mL
CN(CCCNC(=O)c1c(Cl)nc2ccccn12)c1ccccc1F,-,-,fluorescence,MIC50,Mycobacterium ulcerans,-,1–10 µg/mL
CO[C@H]1/C=C/O[C@@]2(C)Oc3c(C)c(O)c4c(=O)c(c5oc6cc(N7CCN(CC(C)C)CC7)cc(=O)c6nc5c4c3=C2O)NC(=O)/C(C)=C\C=C\[C@H](C)[C@H](O)[C@@H](C)[C@@H](O)[C@@H](C)[C@H](OC(C)=O)[C@@H]1C,Isolate 94-886,-,-,MBC,Mycobacterium ulcerans,-,0.012 µg/mL
CCCCCCCCCCCCCCCOC(=O)NC(CCC(=O)O)(CCC(=O)O)CCC(=O)O,ATCC 927,-,-,MIC,Mycobacterium marinum,-,216 µg/mL
CO[C@@]1(NC(=O)Cc2ccccc2)C(=O)N2C(C(=O)[O-])=C(CSc3nnc(C)s3)CSC21,1047,-,-,MIC,Mycobacterium fortuitum,-,100 µg/mL
CCn1c(CNC(=O)c2c(-c3cccc(C)c3)nc3ccc(C)cn23)nc2ccccc21,-,-,fluorescence,MIC50,Mycobacterium ulcerans,-,>10 µg/mL
CO[C@@]1(NC(=O)CCCC(N)C(=O)O)C(=O)N2C(C(=O)O)=C(COC(N)=O)CSC21,1263,-,-,MIC,Mycobacterium fortuitum,-,>100 µg/mL
CO[C@H]1/C=C/O[C@@]2(C)Oc3c(C)c(O)c4c(O)c(cc(O)c4c3C2=O)NC(=O)/C(C)=C\C=C\[C@H](C)[C@H](O)[C@@H](C)[C@@H](O)[C@@H](C)[C@H](OC(C)=O)[C@@H]1C,ATCC 927,-,-,MIC,Mycobacterium marinum,-,0.8 µg/mL
CCCCCc1ccc(NC(=O)NNC(=O)c2ccncc2)cc1,My 6509/96,-,broth dilution,MIC100,Mycobacterium kansasii,14 d,62.5 µM
O=C(NCC(O)c1ccccc1C(F)(F)F)c1c(Cl)nc2ccccn12,-,-,fluorescence,MIC50,Mycobacterium ulcerans,-,1–10 µg/mL
CCCC[C@H]1CN(c2ccc(CNC(=O)c3c(CC)nc4ccc(Cl)cn34)cc2F)CCN1c1ccc(OC(F)(F)F)cc1,-,0.015 µM,fluorescence,inhibition,Mycobacterium avium,-,85%
CCCCc1ccc(NC(=O)NNC(=O)c2ccncc2)cc1,My 235/80,-,broth dilution,MIC100,Mycobacterium kansasii,14 d,125 µM
CCOc1ccc(N2CCC(c3ccc(CNC(=O)c4c(CC)nc5ccc(Cl)cn45)cc3F)CC2)cc1.Cl,-,0.019 µM,fluorescence,inhibition,Mycobacterium avium,-,85%
CO[C@@]1(NC(=O)Cc2cccs2)C(=O)N2C(C(=O)O)=C(COC(N)=O)CS[C@@H]21,1260,-,-,MIC,Mycobacterium fortuitum,-,12.5 µg/mL
Oc1cc(OCc2ccccc2)ccc1-c1n[nH]c(C(F)(F)F)c1-c1ccccc1,-,-,visual reading,MIC,Mycobacterium marinum,-,25 µg/mL
NNC(=O)c1ccncc1,My 6509/96,-,broth dilution,MIC100,Mycobacterium kansasii,7 d,4 µM
Cc1ccn2c(C(=O)NCc3ccc(N4CCN(CC(F)F)CC4)c(F)c3)c(C)nc2c1,-,0.93 µM,fluorescence,inhibition,Mycobacterium avium,-,85%
O=C(NNC(=O)c1ccncc1)Nc1ccc(Br)cc1F,My 6509/96,-,broth dilution,MIC100,Mycobacterium kansasii,14 d,>125 µM
CCCCCCCCCCCCCCCC(=O)NC(CCC(=O)O)(CCC(=O)O)CCC(=O)O,ATCC 927,-,-,MIC,Mycobacterium marinum,-,288 µg/mL
O=C(NCc1ccc(N2CCCC2)nc1)c1c(Cl)nc2ccccn12,-,-,fluorescence,MIC50,Mycobacterium ulcerans,-,1–10 µg/mL
CCc1nc(N)nc(N)c1-c1ccc(Cl)cc1,DW5,-,-,MIC,Mycobacterium avium complex,-,32 µg/mL

The last 3 rows once more:

CCCCCCCCCCCCCCCC(=O)NC(CCC(=O)O)(CCC(=O)O)CCC(=O)O ; strain: ATCC 927 ; read-out: MIC ; agent: Mycobacterium marinum ; result: 288 µg/mL
O=C(NCc1ccc(N2CCCC2)nc1)c1c(Cl)nc2ccccn12 ; method: fluorescence ; read-out: MIC50 ; agent: Mycobacterium ulcerans ; result: 1–10 µg/mL
CCc1nc(N)nc(N)c1-c1ccc(Cl)cc1 ; strain: DW5 ; read-out: MIC ; agent: Mycobacterium avium complex ; result: 32 µg/mL

Percent inhibition refers to the dose given; in toxicity tests it is the harm to the cells. A number after MIC or MFC names an inhibition level or a share of isolates. Lines come from different laboratories, so protocols vary. a–b is a range or a potency band.